# PubChem BioAssay AID1259414 | Drosophila RNAi Screening Center – 2018
# Purpose: 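Host factors increasing or decreasing Wolbachia levels in cultured fly cells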 (primary screen)
# Cell system: Drosophila JW18 cells infected with Wolbachia
# Reagents: long dsRNA against Drosophila genes, 0.25 µg dsRNA per well of a 384-well plate
# Timing: 5 days
# Challenge: cells persistently infected with Wolbachia before knock-down; no added drug
# Measured: 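Automated imaging of bacterial rRNA staining divided by host cell count, reported as plate-normalised robust z-score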
# Direction: Wolbachia per cell robust z: higher = more Wolbachia per host cell than the plate typical
# Hit rule: 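Active if absolute robust z reaches 1.5 in two or more of three replicates, leaving out multi- or no-target dsRNAs, genes unexpressed in JW18 and A1 wells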
# In all, the deposit lists about 24,000 reagents; below is an unselected part of those with a known target gene and a result. Over the whole deposit, about 1,210 (5%) are marked active. 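Inactive calls also include excluded dsRNAs with several or no targets, genes unexpressed in JW18, and well A1, regardless of score.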 A plus sign joins genes that one reagent is predicted to hit.
gene,DRSC id,"Wolbachia per cell robust z, rep 1","Wolbachia per cell robust z, rep 2","Wolbachia per cell robust z, rep 3",call
byn (GeneID 39349),DRSC11332,-2.9,0.65,0.807,inactive
byn (GeneID 39349),DRSC29142,0.0558,0.257,0.17,inactive
CG43347 (GeneID 31991),DRSC23007,-0.429,-1.61,-6.12,active
CG43347 (GeneID 31991),DRSC23170,0.444,0.539,-3.13,inactive
CG43347 (GeneID 31991),DRSC25782,-1.39,-0.745,0.361,inactive
CG43347 (GeneID 31991),DRSC29367,-1.17,-3.63,0.309,inactive
CG14411 (GeneID 32408),DRSC19597,-2.42,-1.21,-0.0102,inactive
CG14411 (GeneID 32408),DRSC29396,0.777,0.2,0.713,inactive
CG14411 (GeneID 32408),DRSC41419,0.81,-0.892,1.57,inactive
isoQC (GeneID 40270),DRSC11790,0.903,0.171,0.784,inactive
isoQC (GeneID 40270),DRSC28241,-5.26,-0.265,-0.0363,inactive
CG12289 (GeneID 39279),DRSC09874,0.838,0.937,-2.29,inactive
COX6CL (GeneID 318868),DRSC00895,0.779,0.659,0.355,inactive
CG34232 (GeneID 5740195),DRSC36562,-1.49,1.25,-0.0953,inactive
Sec15 (GeneID 42499),DRSC16179,0.932,-2.88,0.323,inactive
Sec15 (GeneID 42499),DRSC29670,1.11,-2.86,1.54,inactive
CG12519 (GeneID 40114),DRSC29810,-1.05,-0.589,-1.31,inactive
stg (GeneID 43466),DRSC17071,6.93,7.84,4.1,active
stg (GeneID 43466),DRSC27238,-6.16,-1.12,-1.39,inactive
stg (GeneID 43466),DRSC37007,-0.259,0.337,0.561,inactive
CG15282 (GeneID 34853),DRSC23090,-0.613,0.834,0.00167,inactive
CG15282 (GeneID 34853),DRSC29233,-1.54,0.141,0.0793,inactive
Snp + CG44249,DRSC04524,-0.0573,-1.6,0.337,inactive
Drip (GeneID 36236),DRSC07405,-2.13,0.154,-0.674,inactive
CG34458 (GeneID 5740868),DRSC06925,-0.397,0.312,0.895,inactive
CG34458 (GeneID 5740868),DRSC41295,0.303,0.291,-0.691,inactive
sba (GeneID 42824),DRSC13643,0.101,-0.444,1.04,inactive
sba (GeneID 42824),DRSC17050,0.967,-0.925,-0.479,inactive
sba (GeneID 42824),DRSC25797,0.3,0.72,1.03,inactive
Tsp42Ei (GeneID 35618),DRSC06189,0.199,-5.56,-7.32,inactive
Tsp42Ei (GeneID 35618),DRSC26994,0.611,0.174,0.111,inactive
sgg (GeneID 31248),DRSC17228,-2.74,0.973,0.988,inactive
sgg (GeneID 31248),DRSC17722,1.29,-0.0917,-9.11,inactive
sgg (GeneID 31248),DRSC18832,0.471,1.02,0.589,inactive
sgg (GeneID 31248),DRSC23946,-4.46,1.13,2.22,inactive
sgg (GeneID 31248),DRSC40670,0.625,1.39,1.61,inactive
Nha2 (GeneID 42710),DRSC14689,-0.716,0.265,-4.26,inactive
Nha2 (GeneID 42710),DRSC15619,2.11,-1.15,-1.9,inactive
Nha2 (GeneID 42710),DRSC15623,-3.03,0.822,-1.56,inactive
CG43691 (GeneID 14462585),DRSC06650,-0.555,-3.23,-3.85,inactive
CG43691 (GeneID 14462585),DRSC06651,-0.0266,-1.22,-0.036,inactive
CG12126 (GeneID 35805),DRSC06103,-0.252,-0.982,-7.41,inactive
lmd (GeneID 42717),DRSC15618,-1.77,-0.696,-1.13,inactive
lmd (GeneID 42717),DRSC29194,0.377,-0.0787,-0.361,inactive
TTLL4B (GeneID 33609),DRSC00636,-0.742,-0.156,0.675,inactive
TTLL4B (GeneID 33609),DRSC28854,0.409,0.0812,-0.183,inactive
CG18480 (GeneID 34920),DRSC01957,-1.12,-1.67,0.532,inactive
CG18480 (GeneID 34920),DRSC24949,-1.99,-1.51,0.563,inactive
CG12592 + sle,DRSC21387,-0.499,-0.519,0.633,inactive
CG12592 + sle,DRSC27126,0.81,0.531,1.82,inactive
CG6497 (GeneID 39924),DRSC10654,-1.96,-1.31,-2.84,inactive
CG6497 (GeneID 39924),DRSC21469,0.833,0.416,1.17,inactive
CG6497 (GeneID 39924),DRSC26253,-1.16,0.384,-1.91,inactive
RpL36A (GeneID 34098),DRSC03055,1.77,1.13,2.37,active
RpL36A (GeneID 34098),DRSC27375,0.855,0.198,0.181,inactive
CG15386 + CG42371,DRSC30077,0.113,1.34,0.389,inactive
CG33257 (GeneID 2768960),DRSC09917,-0.611,1.21,-0.262,inactive
CG18542 + CG32939,DRSC15342,0.553,0.133,0.594,inactive
CG6770 (GeneID 34621),DRSC02992,-0.696,-0.0234,-3.47,inactive
CG6770 (GeneID 34621),DRSC26414,0.835,1.19,0.151,inactive
Ran-like (GeneID 39666),DRSC10918,-0.145,-7.82,1.05,inactive
betaNACtes6 (GeneID 318107),DRSC22925,0.313,-0.621,-0.544,inactive
betaNACtes6 (GeneID 318107),DRSC26649,-0.383,-1.11,-0.548,inactive
DZIP1 (GeneID 42921),DRSC14620,0.411,0.291,0.214,inactive
S-Lap7 (GeneID 36524),DRSC06374,0.117,0.35,0.565,inactive
S-Lap7 (GeneID 36524),DRSC27414,-4.69,-1.08,-1.36,inactive
CG31229 (GeneID 318636),DRSC13309,-0.287,-0.315,-0.0303,inactive
mRpL43 (GeneID 37750),DRSC04508,0.397,-3.76,-3.57,active
mRpL43 (GeneID 37750),DRSC22571,-0.389,-1.45,0.84,inactive

Entries listed so far with an active call (4):
gene,DRSC id,"Wolbachia per cell robust z, rep 1","Wolbachia per cell robust z, rep 2","Wolbachia per cell robust z, rep 3",call
CG43347 (GeneID 31991),DRSC23007,-0.429,-1.61,-6.12,active
stg (GeneID 43466),DRSC17071,6.93,7.84,4.1,active
RpL36A (GeneID 34098),DRSC03055,1.77,1.13,2.37,active
mRpL43 (GeneID 37750),DRSC04508,0.397,-3.76,-3.57,active
